Assay results: publication PMC7144554, “2-(Arylamino)-6-(trifluoromethyl)nicotinic Acid Derivatives: New HIV-1 RT Dual Inhibitors Active on Viral Replication” (Molecules, 2020)

Tests used:
[1] = system: Y181C RT RNase H function; experiment: RNase H activity of mutated RT Y181C; format: biochemical, HIV-1; conditions: vs wt RT
Protocol: (§1) Amino acid substitutions were introduced into the p66 HIV-1 RT subunit coded in a p6HRT-prot plasmid using the QuikChange protocol (Agilent Technologies Inc., Santa Clara, CA).
(§2) The RT-associated RNase H activity of wt and mutated HIV RTs was measured as described, in 100 µL reaction volume containing 50 mM Tris HCl pH 7.8, 6 mM MgCl2, 1 mM dithiothreitol (DTT), 80 mM KCl, hybrid RNA/DNA (5’-[…]-3’-Fluorescein, 5’-[…]-3’-Dabcyl), and different amounts of enzymes according to a linear range of dose-response curve—20 ng of wt RT; 50 ng K103N RT; 100 ng V108A RT; 4 ng Y181C RT; 100 ng Q475A RT; 100 ng A502F RT. The reaction mixture was incubated for 1 h at 37 °C, the reaction was stopped by addition of EDTA and products were measured with a Victor 3 (Perkin) at 490/528 nm.

[2] = system: V108A RT RNase H function; experiment: RNase H activity of mutated RT V108A; format: biochemical, HIV-1; conditions: vs wt RT
Protocol: as §1, §2

[3] = system: K103N RT RNase H function; experiment: RNase H activity of mutated RT K103N; format: biochemical, HIV-1; conditions: vs wt RT
Protocol: as §1, §2

[4] = Mg2+ coordination, UV spectra; format: physicochemical; conditions: 100 µM compound, 6 mM MgCl2
[5] = system: V108A RT RDDP activity; format: biochemical, HIV-1; conditions: IC50 mutated RT / IC50 wt RT

## CC(C)c1ccc(O)c(=O)c(O)c1 [BTP, beta-Thujaplicinol, reference compound]
[1]
  RNase H Fold: 1.2
[2]
  RNase H Fold: 1.8
[3]
  RNase H Fold: 1.2

## COc1cc(OC)cc(OC(=O)c2ccc(C(F)(F)F)nc2Nc2cc(Cl)ccc2C)c1 [Compound 21]
[4]
  effect of Mg2+ on UV spectrum: not affected
[1]
  RNase H Fold: 0.8
[5]
  RDDP Fold: 5.1
[2]
  RNase H Fold: >6.8
[3]
  RNase H Fold: 3.7

## Cc1ccc(Cl)cc1Nc1nc(C(F)(F)F)ccc1C(=O)Oc1ccc(Cl)cc1 [Compound 13]
[4]
  effect of Mg2+ on UV spectrum: not affected

## Cc1cccc(NC(=O)c2ccc(C(F)(F)F)nc2Nc2cc(Cl)ccc2C)c1 [Compound 29]
[4]
  shift in the peak of absorbance in presence of Mg2+: 17 nm

## COc1cc(NC(=O)c2ccc(C(F)(F)F)nc2Nc2cc(Cl)ccc2C)cc(OC)c1 [Compound 34]
[4]
  effect of Mg2+ on UV spectrum: moderate hyperchromic effect, but not a shift

## COc1cc(NC(=O)c2ccc(C(F)(F)F)nc2Nc2cc(Cl)ccc2C)cc(OC)c1OC [Compound 36]
[4]
  effect of Mg2+ on UV spectrum: not affected

## Cc1ccc(Cl)cc1Nc1nc(C(F)(F)F)ccc1C(=O)N1CCN(c2ccc(Cl)c(Cl)c2)CC1 [Compound 52, (2-((5-Chloro-2-methylphenyl)amino)-6-(trifluoromethyl)pyridin-3-yl)(4-(3,4-dichlorophenyl)piperazin-1-yl)methanone]
[4]
  effect of Mg2+ on UV spectrum: moderate hyperchromic effect, but not a shift
